Reference: article PMC10221320
Positions of bridges follow the written chain, without caps; N, C: chain ends. No end group written: not given here.

Molecular target: T1, human ASIC3 truncated by 20 C-terminal amino acid residues (hASIC3-Δ20) (Homo sapiens, UniProt Q9UHC3)
T1 sequence (Q9UHC3 1-511 limits assumed): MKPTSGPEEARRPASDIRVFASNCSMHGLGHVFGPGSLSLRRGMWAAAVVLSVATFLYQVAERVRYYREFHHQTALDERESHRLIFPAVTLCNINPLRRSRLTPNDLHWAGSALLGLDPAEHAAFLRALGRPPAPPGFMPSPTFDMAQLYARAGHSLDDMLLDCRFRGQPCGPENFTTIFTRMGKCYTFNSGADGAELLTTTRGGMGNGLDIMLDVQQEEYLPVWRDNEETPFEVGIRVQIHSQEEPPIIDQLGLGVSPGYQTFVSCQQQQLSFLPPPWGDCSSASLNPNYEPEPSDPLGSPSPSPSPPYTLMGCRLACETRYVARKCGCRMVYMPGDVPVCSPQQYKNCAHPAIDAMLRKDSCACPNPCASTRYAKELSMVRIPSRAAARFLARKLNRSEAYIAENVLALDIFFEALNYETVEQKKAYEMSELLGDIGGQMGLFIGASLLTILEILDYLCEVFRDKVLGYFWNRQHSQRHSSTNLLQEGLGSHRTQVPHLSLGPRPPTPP
Test: Two-electrode voltage clamp, hASIC3-Δ20 in Xenopus laevis oocytes

GTPCDCYGYTGVYWFMLSRCPSGYGYNLSCHYFMGICCVKR (disulfide 4-37, 6-30, 20-38 (inferred)) [Hmg 1b-4]
IC50: 14.1 ± 2.5 µM
effect on the sustained current component (pH drop from 8.0 to 5.5): did not have any significant effect on the sustained component
nH, Hill coefficient, inhibition of transient current (pH drop from 8.0 to 5.5, n = 5): 1.1 ± 0.2
